Measured values from several laboratories, pooled; numbers as filed in NIAID ChemDB.

Shared fields: tests in culture; species: Mycobacterium tuberculosis

A number after MIC or MFC names an inhibition level or a share of isolates. An empty or dashed field is not shown. Lines come from different laboratories, so protocols vary. MIC bound comes from a single tested concentration. a–b is a range or a potency band. Percent inhibition refers to the dose given; in toxicity tests it is the harm to the cells. ECn is the concentration giving n% inhibition of infection, replication or growth.

SMILES	strain or isolate	changes	cells	read by	setting	measure	dose	result
COc1ccn2nc(C)c(C(=O)NCc3ccc(-c4ccc(OC(F)(F)F)cc4)c(C)c3)c2c1	H37Rv	-	-	fluorescence	-	MIC	-	<0.02 µg/mL
CC1=NN(c2ccccc2)C(=O)C1N=Nc1ccc(S(=O)(=O)Nc2nccs2)cc1	H37Rv	-	-	BACTEC	-	MIC	-	≥12.8 µg/mL
O=C(CN1CCOCC1)N/N=C\C(=O)c1ccc(-c2ccccc2)cc1	-	-	-	-	-	MIC	-	>50 µg/mL
O=C(N=Nc1c(O)[nH]c2cc(Cl)ccc12)Nc1ccc(Cl)cc1	H37Rv	-	-	-	-	inhibition	6.25 µg/mL	<20%
OC1C2COC(O2)C2OC(c3ccccc3)OC12	H37Rv	-	-	BACTEC	-	MIC bound	-	>12.5 µg/mL
COc1ccn2nc(C)c(C(=O)NCc3ccc(-c4ccc(OC(F)(F)F)cc4)nc3)c2c1	H37Rv	-	-	fluorescence	-	MIC	-	<0.02 µg/mL
CCCCOC(=O)c1cn(-c2cc(C)ccn2)nn1	H37Rv	-	-	-	-	inhibition	6.25 µg/mL	89%
CNn1cc(C(=O)O)c(=O)c2cc(F)c(N3CCN(C)CC3)cc21	22 isolates	-	-	-	-	MIC50	-	4 µg/mL
CC(C)(C)C1CCc2c(sc3nc(SCC(=O)OCc4ccccc4)nc(N)c23)C1	H37Rv	-	-	MTT / visual reading	-	MIC	-	1.5 µg/mL
Cc1cc(C(N)=O)c(C(N)=O)c(Cl)n1	H37Rv	-	-	BACTEC	-	MIC bound	-	>12.5 µg/mL
COC(=O)c1cn(-c2ccccn2)nn1	H37Rv	-	-	-	-	inhibition	6.25 µg/mL	25%
Cc1cc2ncn(CC(=O)NN)c2cc1C	H37Rv	-	-	BACTEC	-	inhibition	12.5 µg/mL	-5%
CCCOC1=NOC2(CCN(C(=O)CCC(F)(F)F)CC2)C1	H37Rv	-	THP-1	fluorescence	-	EC50	-	<0.5 µM
COc1ccc(C(=O)Nc2ccc(C(=O)NN3C(=O)CSC3c3ccc(Cl)cc3)cc2)cc1	H37Rv	-	-	-	-	MIC	-	>6.25 µg/mL
COc1ccc2nc3cc(Cl)ccc3c(Nc3cc(CN4CCCC4)c(O)c(CN4CCCC4)c3)c2n1	88.7	pyrG V186G	-	resazurin	-	MIC	-	5–10 µg/mL
N#Cc1ccc(Nc2ncnc3c(=N)n(NC(=O)c4ccncc4)cnc23)cc1	H37Rv	-	-	-	-	EC90	-	>100 µg/mL
Cc1ccc(CSc2nc3ccccc3[nH]2)cc1	My 331/88	-	-	-	-	MIC	-	>125 µM
CCOC(=O)c1c(N)sc2sc(-c3ccc(C)cc3)cc12	H37Rv	-	-	-	-	MIC	-	4.9 µM
O=C(CN1CCOCC1)N/N=C\C(=O)c1ccc(Sc2ccccc2)cc1	-	-	-	-	-	MIC	-	>50 µg/mL
Fc1cccc(Cl)c1CSc1nc2ccccc2[nH]1	My 331/88	-	-	-	-	MIC	-	>62 µM
CC(C)(C)C1CCC(=NNC(=O)c2ccncc2)CC1	EMB-resistant	-	-	-	-	MIC	-	0.1 µg/mL
COc1ccc(/C(C)=N/NC(=O)c2ccncc2)cc1OC	H37Rv	-	VERO	-	-	MIC	-	0.15 µg/mL
CC1=NOC2(CCN(C(=O)CCC(F)(F)F)CC2)C1	H37Rv	-	THP-1	fluorescence	-	EC50	-	<0.5 µM
CC(C)CSc1nc2ccccc2[nH]1	My 331/88	-	-	-	-	MIC	-	>125 µM
COc1ccc(C(=O)Nn2c(-c3ccccc3)ccc2-c2ccccc2)cc1	H37Rv (ATCC 27294)	-	-	resazurin	-	inhibition	100 µg/mL	90%
OCCN1CCN(CCO)C1=S	H37Rv	-	-	BACTEC	-	inhibition	12.5 µg/mL	0%
O=C(CCC(F)(F)F)N1CCC2(CC1)CC(OCC(F)(F)F)=NO2	H37Rv	-	THP-1	fluorescence	-	EC50	-	<0.5 µM
COc1ccc(C(=O)Nc2ccc(C(=O)NN3C(=O)CSC3c3ccc(Br)cc3)cc2)cc1	H37Rv	-	-	-	-	MIC	-	>6.25 µg/mL
CC(C)(C)c1cc(C(C)(C)C)c2oc(C(N)=O)nc2c1	My 331/88	-	-	-	-	MIC	-	125 µM
Brc1ccc(CSc2nc3ccccc3[nH]2)cc1	My 331/88	-	-	-	-	MIC	-	>32 µM
CC(=O)Nn1cnc2c(Nc3ccc(C#N)cc3)ncnc2c1=N	H37Rv	-	-	-	-	EC90	-	>100 µg/mL
CCOC(=O)c1cn(-c2cc(C)ccn2)nn1	H37Rv	-	-	-	-	inhibition	6.25 µg/mL	98%
CC(C)(C)C1CCc2c(sc3nc(SCc4cscn4)nc(N)c23)C1	H37Rv	-	-	MTT / visual reading	-	MIC	-	50 µg/mL
O=c1nc2n(c3ncccc13)CC=NN2	H37Rv	-	-	BACTEC	-	inhibition	12.5 µg/mL	3%
CCOC(=O)c1c(N)sc2sc(-c3ccc(C(C)C)cc3)cc12	H37Rv	-	-	-	-	MIC	-	2.3 µM
CCOC1=NOC2(CCN(C(=O)CCC(F)(F)F)CC2)C1	H37Rv	-	THP-1	fluorescence	-	EC50	-	<0.05 µM
CO[C@H]1/C=C/O[C@@]2(C)Oc3c(C)c(O)c4c(O)c(c(/C=N/N5CCN(C)CC5)c(O)c4c3C2=O)NC(=O)/C(C)=C\C=C\[C@H](C)[C@H](O)[C@@H](C)[C@@H](O)[C@@H](C)[C@H](OC(C)=O)[C@@H]1C	Harlingen (Ser522Leu)	-	-	-	-	MIC	-	>16 µg/mL
O=[N+]([O-])c1cccc(CSc2nc3ccccc3[nH]2)c1	My 331/88	-	-	-	-	MIC	-	>125 µM
Cc1ccc2nc(C)c(C(=O)NCc3ccc(S(F)(F)(F)(F)F)cc3)n2c1	H37Rv	-	-	low oxygen	-	MIC	-	0.62 µM
O=C(O)c1cn(C2CC2)c2cc(N3CCN(Cc4ccccc4)CC3)c(F)cc2c1=O	-	-	-	-	-	MIC50	-	1 µg/mL
CC(C)(C)c1cc(C(C)(C)C)c2nc(C(=O)NC(Cc3ccc(O)cc3)C(=O)O)oc2c1	My 331/88	-	-	-	-	MIC	-	500 µM
CNC(=O)c1nc(C)c(CCC(=O)O)nc1NC	H37Rv	-	-	BACTEC	-	MIC	-	≥12.5 µg/mL
O=C(Nn1c(-c2ccccc2)ccc1-c1ccccc1)c1ccncc1	H37Rv	-	-	turbidity	-	EC50	-	2.71 µg/mL
O=C1c2ccc(O)cc2OC(c2cc(O)c(O)c(O)c2)C1O	H37Rv	-	-	BACTEC	-	inhibition	12.8 µg/mL	16%
N#Cc1c(N)sc2sc(-c3cccc4ccccc34)cc12	H37Rv	-	-	-	-	MIC	-	10.2 µM
COc1ccccc1/C=N/NC(=O)c1ccncc1	-	-	-	-	-	MIC90	-	0.3 µg/mL
CCOC(=O)c1cn(-c2ccccn2)nn1	H37Rv	-	-	-	-	inhibition	6.25 µg/mL	74%
CO[C@H]1/C=C/O[C@@]2(C)Oc3c(C)c(O)c4c(O)c(c(/C=N/N5CCN(C)CC5)c(O)c4c3C2=O)NC(=O)/C(C)=C\C=C\[C@H](C)[C@H](O)[C@@H](C)[C@@H](O)[C@@H](C)[C@H](OC(C)=O)[C@@H]1C	H37Rv	Isoniazid-resistant	-	fluorescence	-	MIC	-	<0.008 µg/mL
NNC(=O)c1ccncc1	81.10	ethA D1109-37	-	resazurin	-	MIC	-	0.025 µg/mL
CO[C@H]1/C=C/O[C@@]2(C)Oc3c(C)c(O)c4c(O)c(c5c(c4c3C2=O)NC2(CCN(CC(C)C)CC2)N=5)=NC(=O)/C(C)=C\C=C\[C@H](C)[C@H](O)[C@@H](C)[C@@H](O)[C@@H](C)[C@H](OC(C)=O)[C@@H]1C	Rifampicin-resistant strains	-	-	-	-	MIC	-	0.25–0.5 µg/mL
NNC(=O)c1ccncc1	H37Rv (ATCC 27294)	-	-	turbidity	-	inhibition	0.21 µg/mL	90%
NNC(=O)c1ccccc1	Mtb C-31	-	-	-	-	MIC	-	4 µg/mL
COc1ccc(C(=O)Nc2ccc(C(=O)N/N=C/c3ccc(F)cc3)cc2)cc1	H37Rv	-	-	-	-	inhibition	6.25 µg/mL	2%
C=CCSc1nc2ccccc2[nH]1	My 331/88	-	-	-	-	MIC	-	1000 µM
CCOC(=O)c1c(N)sc2sc(-c3cccc4ccccc34)cc12	MDR-TB	-	-	-	multidrug-resistant	MIC	-	1.1 µM
CCCCCC(CC(=O)N1N=CCCC1C(=O)N[C@H]1COC(=O)C2C[C@@H](C)CNN2C(=O)[C@H](C)NC(=O)[C@@H](CC(C)C)NC1=O)C(=O)O	246	-	-	-	-	MBC	-	50 µg/mL
CCc1nc2ccc(Cl)cn2c1C(=O)NCc1cccc(S(F)(F)(F)(F)F)c1	H37Rv	-	-	low oxygen	-	MIC	-	200 µM
CCOC(=O)C(Sc1nc(N)c2c3c(sc2n1)CC(C(C)(C)C)CC3)C(C)(C)C	H37Rv	-	-	MTT / visual reading	-	MIC	-	>200 µg/mL
FC(F)(F)c1ccc(CSc2nc3ccccc3[nH]2)cc1	My 331/88	-	-	-	-	MIC	-	32 µM
CC(C)(C)c1cc(C(C)(C)C)c2nc(C(=O)NCC(=O)O)oc2c1	My 331/88	-	-	-	-	MIC	-	500 µM
COC1CC(=O)c2cccc(O)c2C1=O	90-221387	-	-	-	-	MIC	-	3.125 µg/mL
CCc1nc2ccc(Cl)cn2c1C(=O)NCc1ccc(S(F)(F)(F)(F)F)cc1	H37Rv	-	-	low oxygen	-	MIC	-	0.88 µM
Cc1c/c(=N\NC(=O)c2ccncc2)n2nc(N)sc2n1	-	-	-	BACTEC	-	inhibition	0.5 µM	0%
Nc1nc(COC(=O)c2cc(F)cc(C(F)(F)F)c2)cs1	H37Rv	-	-	-	-	MIC	-	1.25 µg/mL
COc1cc(OC)c(-c2nc3ccc(C)cc3c(=O)o2)cc1OC	H37Rv	-	-	BACTEC	-	inhibition	12.5 µg/mL	46%
O=C(CN1CCCCC1)N/N=C\C(=O)c1ccc(-c2ccccc2)cc1	-	-	-	-	-	MIC	-	>50 µg/mL
COc1cc(/C=N/NC(=O)c2ccncc2)ccc1O	-	-	-	-	-	MIC90	-	0.15 µg/mL
O=C(CN1CCCC1)N/N=C\C(=O)c1ccc(Oc2ccccc2)cc1	-	-	-	-	-	MIC	-	>50 µg/mL
COC1C(O)=C2C(=O)OC(C)(O)/C=C/C=C/C=C/C=C\C(c3ccccc3)NC(=O)/C=C/C=C/C=C/C=C/C2(C)C1O	ETA-R	-	-	-	-	MIC	-	>12.5 µg/mL
CC(C)(C)C1CCc2c(sc3nc(SCc4nccs4)nc(N)c23)C1	H37Rv	-	-	MTT / visual reading	-	MIC	-	0.39 µg/mL
O=C(Nc1ccc(N=Nc2ccc(S(=O)(=O)O)cc2)cc1)c1ccc(N=Nc2ccc3c(S(=O)(=O)O)cccc3c2O)cc1	H37Rv	-	-	BACTEC	-	MIC bound	-	>12.5 µg/mL
N#Cc1c(N)sc2sc(-c3ccc(Cl)cc3Cl)cc12	MDR-TB	-	-	-	multidrug-resistant	MIC	-	19.2 µM
CCCCCCC/C=C\C(O)C#CC#CC(O)CC	H37Rv	-	-	resazurin	-	MIC90	-	50.2 µg/mL
NNC(=O)c1ccncc1	05001 (H37RV)	-	-	-	-	MIC	-	0.04–0.05 µg/mL
COc1cccc2c1C(=O)c1c(O)c3c(c(O)c1C2=O)CC(O)(C1(C)OCCO1)CC3O	H37Rv	-	-	BACTEC	-	MIC	-	≥12.5 µg/mL
CO[C@H]1/C=C/O[C@@]2(C)Oc3c(C)c(O)c4c(O)c(c(/C=N/N5CCN6CCCCC6C5)c(O)c4c3C2=O)NC(=O)/C(C)=C\C=C\[C@H](C)[C@H](O)[C@@H](C)[C@@H](O)[C@@H](C)[C@H](OC(C)=O)[C@@H]1C	Rifampicin-resistant	-	-	-	-	MIC	-	>3 µg/mL
CC(=O)Nn1cnc2c(Nc3ccccc3)ncnc2c1=N	H37Rv	-	-	-	-	EC90	-	>100 µg/mL
Nc1nn2c(=O)c3ccccc3nc2s1	H37Rv	-	-	resazurin	-	inhibition	6.25 µg/mL	-1%
NNC(=O)c1ccncc1	H37Rv	-	-	-	-	MIC	-	<0.02 µg/mL
Cn1c(=O)c2c(nc3n(Cc4ccccc4)c(=O)c(Br)cn23)n(C)c1=O	H37Rv	-	-	resazurin	-	MIC bound	-	>6.25 µg/mL
N#CCCc1cccc(C(=O)OCc2csc(N)n2)c1	H37Rv	-	-	-	-	MIC	-	1.25 µg/mL
C=CC(O)C#CC#CC(O)/C=C\CCCCCCCCOC(C)=O	Erdman	-	-	resazurin	-	MIC90	-	1.4 µg/mL
C=CCn1c(-c2cc(C(C)(C)C)c(O)c(C(C)(C)C)c2)cs/c1=N\C(P(=O)(O)O)P(=O)(O)O	H37Rv	-	-	resazurin	-	MIC bound	-	>6.25 µg/mL
N#Cc1c(N)sc2sc(-c3ccccc3)cc12	H37Rv	-	-	-	-	MIC	-	97.5 µM
CC(C)N1CCN(c2cc3c(cc2F)c(=O)c(C(=O)O)cn3C2CC2)CC1	-	-	-	-	-	MIC90	-	0.125 µg/mL
CCCCCCCCCCCCCCCCNC(=S)N/N=C/c1ccc(NC(C)=O)cc1	H37Rv	-	-	BACTEC	-	MIC bound	-	≤12.5 µg/mL
Fc1ccc(CSc2nc3ccccc3[nH]2)cc1	My 331/88	-	-	-	-	MIC	-	62 µM
Cc1cnc(N)c(C(=O)OCc2ccccc2)n1	H37Rv	-	-	BACTEC	-	MIC bound	-	>12.5 µg/mL
COc1ccc(C(=O)Nc2ccc(C(=O)NNC(=S)Nc3ccc(C)cc3)cc2)cc1	H37Rv	-	-	-	-	MIC	-	>6.25 µg/mL

5 of the rows above, restated:

{"SMILES": "COC(=O)c1cn(-c2ccccn2)nn1", "strain or isolate": "H37Rv", "measure": "inhibition", "dose": "6.25 µg/mL", "result": "25%"}
{"SMILES": "COc1ccn2nc(C)c(C(=O)NCc3ccc(-c4ccc(OC(F)(F)F)cc4)nc3)c2c1", "strain or isolate": "H37Rv", "read by": "fluorescence", "measure": "MIC", "result": "<0.02 µg/mL"}
{"SMILES": "NNC(=O)c1ccncc1", "strain or isolate": "81.10", "changes": "ethA D1109-37", "read by": "resazurin", "measure": "MIC", "result": "0.025 µg/mL"}
{"SMILES": "CCCCCCCCCCCCCCCCNC(=S)N/N=C/c1ccc(NC(C)=O)cc1", "strain or isolate": "H37Rv", "read by": "BACTEC", "measure": "MIC bound", "result": "≤12.5 µg/mL"}
{"SMILES": "Fc1ccc(CSc2nc3ccccc3[nH]2)cc1", "strain or isolate": "My 331/88", "measure": "MIC", "result": "62 µM"}